Anti-infective test results gathered from many reports (values: NIAID ChemDB through PubChem).

All rows: whole-cell or culture tests; agent: Influenza B virus

ECn: concentration that inhibits the pathogen or its effect by n%.

compound	strain	endpoint	cell line	method	value
NC(=O)c1ncn([C@@H]2O[C@H](CO)[C@@H](O)[C@H]2O)n1	B/Singapore/222/79	EC50	MDCK		30 µM
CN1CCCCC1C12CC3CC(CC(C3)C1)C2		EC50	MDCK	cytopathic effect	>928 µM
CC(N)C12CC3CC(CC(C3)C1)C2	B/Victoria/102/85	EC50	MDCK	plaque count	>25 µM
Nc1ccn([C@@H]2C[C@@H](O)[C@H](CO)O2)c(=O)n1		EC50	MDCK		>100 µM
NC(=O)c1ncn([C@@H]2O[C@H](CO)[C@@H](O)[C@H]2O)n1	B/Singapore/222/79	EC50	MDCK	plaque count	3.6 µg/mL
CN1CCC2(C1)C1CC3CC(C1)CC2C3	B/University of Maryland/1/71	MIC			>25 µg/mL
CC(C)CCCC(C)C1CCC2C3CC=C4CC(O)CCC4(C)C3CCC12C	Singapore/222/79	EC50	MDCK	cytopathic effect	>200 µM
Cc1ccccc1NC(=O)CSc1sc(N)nc1-c1ccc(Br)cc1Br	B/HK/5/72	EC50	MDCK cells	cytopathic effect	>195 µM
c1ccc(CN2CCCCC2C23CC4CC(CC(C4)C2)C3)cc1		EC50	MDCK	cytopathic effect	>724 µM
C#Cc1c(C(N)=O)ncn1[C@@H]1O[C@H](CO)[C@@H](O)[C@H]1O	Singapore	EC50	MDCK	cytopathic effect	1 µg/mL
C1CCN(CCN2CCCCC2C23CC4CC(CC(C4)C2)C3)CC1		EC50	MDCK	cytopathic effect	>561 µM
Nc1ccc(S(=O)(=O)O)c2cc(S(=O)(=O)O)cc(O)c12	Singapore/222/79	EC50	MDCK	cytopathic effect	>200 µM
NC12CC3CC(CC(C3)C1)C2	B/LEE/40	EC50	MDCK	cytopathic effect	>320 µg/mL
CC(N)C12CC3CC(CC(C3)C1)C2	B/HK/5/72	EC50	MDCK cells	cytopathic effect	>500 µM
C1CCN(CCN2CCCCCC2C23CC4CC(CC(C4)C2)C3)CC1		EC50	MDCK	cytopathic effect	>840 µM
O=C(NCCc1c[nH]c2ccccc12)C1=Cc2ccncc2CC1		EC50	MDCK	cytopathic effect	23 µM
Clc1ccc(-c2csc(N3N=C(c4cccs4)CC3c3ccc(Cl)cc3)n2)cc1	Singapore/22/79	EC50	MDCK	cytopathic effect	>200 µg/mL
Cc1cn([C@@H]2C[C@@H](O)[C@H](CO)O2)c(=O)[nH]c1=O		EC50	MDCK		>100 µM
NC(=O)c1ncn([C@@H]2O[C@H](CO)[C@@H](O)[C@H]2O)c1O	B/Singapore	EC50	MDCK	plaque count	3.3 µg/mL
NC(=O)c1nn([C@@H]2O[C@H](CO)[C@@H](O)[C@H]2O)cc1F	Victoria	EC50		plaque count	0.2 µg/mL
NC12CC3CC(CC(C3)C1)C2	B/University of Maryland/1/71	MIC			>25 µg/mL
C1CCN(CC2CC2)C(C23CC4CC(CC(C4)C2)C3)C1		EC50	MDCK	cytopathic effect	>162 µM
C#Cc1c(C(N)=O)ncn1[C@@H]1O[C@H](CO)[C@@H](O)[C@H]1O	B/Singapore/222/79	EC50	MDCK	plaque count	0.44 µg/mL
CC(N)C12CC3CC(CC(C3)C1)C2	B/Victoria/102/85	EC50	MDCK		>25 µM
NC(=O)c1nc(F)c[nH]c1=O	Guangdong/5/94	EC50	MDCK	plaque count	0.053 µg/mL
Nc1ccn([C@@H]2C[C@H](CO)[C@@H](O)[C@H]2O)c(=O)n1		EC50	MDCK	cytopathic effect	4.5 µg/mL
C[C@H]1C[C@@H](n2cnc3c(N)ncnc32)[C@H](O)[C@@H]1O	Singapore	EC50	MDCK	cytopathic effect	>100 µg/mL
C1CCNC(C23CC4CC(CC(C4)C2)C3)CC1		EC50	MDCK	cytopathic effect	>186 µM
CC(C)CCCC(C)C1CCC2C3CC=C4CC(OC(=O)Cl)CCC4(C)C3CCC12C	Singapore/222/79	EC50	MDCK	cytopathic effect	>200 µM

Repeating the first 3 entries:

compound | strain | endpoint | cell line | method | value
NC(=O)c1ncn([C@@H]2O[C@H](CO)[C@@H](O)[C@H]2O)n1 | B/Singapore/222/79 | EC50 | MDCK |  | 30 µM
CN1CCCCC1C12CC3CC(CC(C3)C1)C2 |  | EC50 | MDCK | cytopathic effect | >928 µM
CC(N)C12CC3CC(CC(C3)C1)C2 | B/Victoria/102/85 | EC50 | MDCK | plaque count | >25 µM

Conditions beyond the fields shown may differ between rows. An empty or dashed field is not shown.